Target: SARS‐CoV‐2 NSP3 ADRP domain (1023–1192), tag cleaved, for FP (SARS-CoV-2) (UniProt P0DTD1)
Assay: FP

MBOAT1 wild-type peptide showed a Kd of 49 µM.

— article PMC12102759
